From patent US8937167B2 (Washington University, priority 2009, dated 2015)
Read-outs that look alike come from different tables or passages of the source.

By UniProt entry, the sequences of proteins in these tests, tags left out. Residues count along the entry.
UniProt Q1R2J4, 20-300 limits assumed: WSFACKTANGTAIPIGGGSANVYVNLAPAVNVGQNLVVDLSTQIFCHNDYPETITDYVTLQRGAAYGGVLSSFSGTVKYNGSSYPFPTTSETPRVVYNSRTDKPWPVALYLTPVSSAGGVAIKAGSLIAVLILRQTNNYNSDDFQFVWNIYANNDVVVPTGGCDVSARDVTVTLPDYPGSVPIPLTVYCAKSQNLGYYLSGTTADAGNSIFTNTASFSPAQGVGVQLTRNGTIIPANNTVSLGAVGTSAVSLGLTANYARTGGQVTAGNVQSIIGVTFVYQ

Target: FimH (Escherichia coli, UniProt Q1R2J4)
[1] = read-out: HA 50% titer, Table 13, Example 6 numbering
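Note: hemagglutination inhibition of guinea pig erythrocytes agglutinated by type 1 piliated uropathogenic E. coli via FimH mannose binding, quantified through serial dilutions of compound.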

Row | Structure (SMILES) | EC90 (read-out: HA 50% titer EC90, Table 11, Example 6 numbering) | EC50 [1] | EC50 (read-out: HA 50% Titer, Table 10, Example 6 numbering) | fold enhancement in HA potency (relative to 3j)
1 | COC(=O)c1ccc(-c2ccc(O[C@H]3O[C@H](CO)[C@@H](O)[C@H](O)[C@@H]3O)cc2)cc1 | 4 µM | 4 µM | – | –
2 | COC(=O)c1cc(O[C@H]2O[C@H](CO)[C@@H](O)[C@H](O)[C@@H]2O)cc(C(=O)OC)c1 | – | 2 µM | 2 µM | 3 fold
